Experimental data published in PubChem BioAssay AID602276 (University of Pittsburgh Molecular Library Screening Center, 2012).
The list shows a part of the results, in another mix than the full data. Activity calls are given as the source filed them.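 Rule for the calls: active = inhibition at or above 50% at 10 µM; inactive = inhibition below 50%.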

test: inhibitors of Sendai virus-induced IRF3 signaling, primary screen, TLR/RLR signaling modifier project, cell-based, Sendai virus stimulus, luciferase, 10K MLSCN set (AID 602276); settings: HEK293 RL24 IRF3 luciferase reporter, at 10 µM, hits give high values;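 note: firefly luciferase from ISG56 promoter only with Renilla not read in this screen; 0% = Sendai virus plus DMSO and 100% = medium plus DMSO without virus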

Row | Compound | inhibition
1 | COP1(=S)c2c(C)nn(CCC#N)c2N=C(c2ccc(F)cc2)N1C (stereo not given) | inactive: 10.1%
2 | O=C(COc1ccccc1)OC1CN2CCC1CC2 (stereo not given) | inactive: -4.7%
3 | CCOP1(=S)c2c(C)nn(CCC#N)c2N=C(c2ccccc2F)N1C (stereo not given) | inactive: -6.36%
4 | Cc1nn(-c2ccccc2)c2c1P(=O)(N1CCOCC1)N(C)C(c1ccccc1)=N2 (stereo not given) | inactive: -10.5%
5 | O=P(Nc1nccs1)(c1ccccc1)c1ccccc1 | inactive: 7.15%
